Results of unrelated studies side by side (data: NIAID ChemDB).

Shared fields: whole-cell or culture tests; agent: Candida albicans

Neighbouring rows are from separate reports.

| structure | read by | conditions | endpoint | strain | result |
|---|---|---|---|---|---|
| Fc1ccccc1CN(Cc1ccc(-c2ccccc2)cc1)n1ccnc1 | - | - | MFC | - | 200 µM |
| O=C(CCN1C(=O)S/C(=C\c2ccccc2)C1=O)Nc1cccc(O)c1 | - | - | MIC | - | 3.12 µg/mL |
| O=[N+]([O-])c1nn2cc(-c3ccc(F)cc3)nc2s1 | agar diffusion | - | MIC | - | 50 µg/mL |
| COC(=O)c1c(C)oc2cc(C(=O)C(Cl)Cl)c(O)c(Cl)c12 | - | - | MIC | ATCC 10231 | 100 µg/mL |
| CC1(C)C2CC3OB(C[C@@H](Cc4ccccc4)NC(=O)[C@H](N)CCCCN)O[C@]3(C)C1C2 | - | - | MIC | - | ≤500 µg/mL |
| Cc1ccc(OC(C)c2nnc(SCC(=O)Nc3nccs3)n2C2CCCCC2)cc1 | - | - | MIC | Clinical isolates | >16 µg/mL |
| CCCCCOc1ccc(-c2ccc(-c3ccc(C(=O)N[C@H]4C[C@@H](O)[C@@H](O)NC(=O)[C@@H]5[C@@H](O)[C@@H](C)CN5C(=O)[C@H]([C@H](C)O)NC(=O)[C@H]([C@H](O)[C@@H](O)c5ccc(O)cc5)NC(=O)[C@@H]5C[C@@H](O)CN5C(=O)[C@H]([C@H](C)O)NC4=O)cc3)cc2)cc1 | - | - | MIC | 90028 | 0.015 µg/mL |
| Cc1ccc(OC(C)c2nnc(SCC(=O)Nc3nccs3)n2-c2ccccc2)cc1 | - | - | MIC | Clinical isolates | >16 µg/mL |
| S=c1nc2c(n[nH]1)Nc1ccccc1N2 | - | - | MIC | ATCC 2091 | 200 µg/mL |
| CSC1=C(Nc2cccc(C(C)=O)c2)C(=O)c2cccnc2C1=O | - | - | MIC | ATCC 10231 | 25 µg/mL |
| COc1ccc(C(c2cccc3ccccc23)n2ccnc2)cc1 | - | - | MIC50 | 23 strains | 32 µg/mL |
| CC[C@@H]([C@H](C)O)n1ncn(-c2ccc(N3CCN(c4ccc(OC[C@@H]5CO[C@@](Cn6cncn6)(c6ccc(F)cc6F)C5)cc4)CC3)cc2)c1=O | - | - | MIC90 | 13 isolates fluconazole-resistant | >16 µg/mL |
| c1ccc2c(c1)nc1ncc3c(n12)CCCCCC3 | - | - | MIC | - | 25 µg/mL |
| CCOC(=O)Cc1nnc2n1-c1nc3ccccc3nc1NN2 | - | - | MIC | ATCC 2091 | 200 µg/mL |
| Cc1c(Cl)cccc1NC(=O)CCN1C(=O)S/C(=C\c2ccc(O)cc2O)C1=O | - | - | MIC | - | 50 µg/mL |
| CCCCCCCCCC#CCCC#CC(=O)O | - | - | MIC | ATCC 60913 | 11.5 µM |
| CSC1=C(Nc2ccc(Cl)c([N+](=O)[O-])c2)C(=O)c2cccnc2C1=O | - | - | MIC | ATCC 10231 | 6.3 µg/mL |
| CC1(C)CC(=O)c2cc(C3CC(c4ccc(Br)cc4)=NN3C(N)=S)[nH]c2C1 | - | - | MIC | ATCC 2091 | 200 µg/mL |
| CCCCCCCCCCCC[N+](C)(C)COC1CCCCC1 | - | - | MIC | ATCC 10231 | 138 µM |
| O=C(CCN1C(=O)S/C(=C\c2cccc(O)c2)C1=O)Nc1ccccc1 | - | - | MIC | - | 12.5 µg/mL |
| OC(Cn1cncn1)(Cn1cncn1)c1ccc(F)cc1F | - | 48 h | MIC50 | 63 isolates | 1.6 µg/mL |
| Fc1ccc(C(c2cccc3ccccc23)n2ccnc2)cc1 | - | - | Mean MIC | 23 strains | 10.4 µg/mL |
| COc1cc(O)c2c(c1)C(=O)c1c(cc3c(c1O)-c1c(cc(C)c(C(=O)NC(CO)C(=O)O)c1O)[C@H](OC1OC(C)C(N(C)C)C(OC4OCC(O)C(O)C4O)C1O)[C@H]3O)C2=O | - | - | MIC | 10 isolates | 3.1–6.3 µg/mL |
| CSC1=C(Nc2ccc(O)cc2)C(=O)c2cccnc2C1=O | - | - | MIC | ATCC 10231 | 25 µg/mL |
| Cc1ccc(Cl)c(NC(=O)CCN2C(=O)S/C(=C\c3cccc(O)c3)C2=O)c1 | - | - | MIC | - | 12.5 µg/mL |
| c1csc(C(c2cccc3ccccc23)n2ccnc2)c1 | - | - | MIC90 | 23 strains | 16 µg/mL |
| Cc1cc(NC(=O)CCN2C(=O)S/C(=C\c3ccccc3)C2=O)ccc1Cl | - | - | MIC | - | 12.5 µg/mL |
| CCCCCCCCCCSC[N+](C)(C)CCCCCCCC | - | - | MBC | ATCC 10231 | 132 µM |
| C/C(C=O)=C\c1ccccc1 | agar diffusion | - | MIC90 | ATCC 44829 | 250 µM |
| C=CCSS(=O)CC=C | broth dilution | - | MIC50 | Clinical Isolate 3109 | 1.56 µg/mL |
| N/C(=N/N=C1CCCCCC1)SCc1ccc(Cl)cc1Cl | - | - | MIC | - | >200 µg/mL |
| c1nc2ncc3c(n2n1)CCCCCC3 | - | - | MIC | - | 25 µg/mL |
| Cc1nn(-c2ccc(S(=O)(=O)/N=C3\SC(=O)C(=O)N3c3ccc(F)cc3)cc2)c(=O)c2c(C)noc12 | broth dilution | - | MIC | ATCC 10231 | ≥200 µg/mL |
| C[C@@H](c1ncncc1F)[C@](O)(Cn1cncn1)c1ccc(F)cc1F | - | - | MIC50 | - | 0.008 µg/mL |
| CN(C)C(=S)N(C)C | visual reading | - | MIC | MTCC 183 | 250 µg/mL |
| O=[N+]([O-])c1ccc(-c2cn3nc([N+](=O)[O-])sc3n2)cc1 | agar diffusion | - | MIC | - | >75 µg/mL |
| CC1(C)C2CC3OB([C@H](Cc4ccccc4)[C@@H](Cc4ccccc4)NC(=O)[C@@H](N)CCCCN)O[C@]3(C)C1C2 | - | - | MIC | - | ≤500 µg/mL |
| Clc1ccc(CN(Cc2ccc(-c3ccccc3)cc2)n2ccnc2)cc1 | - | - | MFC | - | 200 µM |
| Cc1ccc(C(c2cccc3ccccc23)n2ccnc2)cc1 | - | - | Mean MIC | 23 strains | 20.5 µg/mL |
| CCOc1ccc(NC2=C(SC)C(=O)c3ncccc3C2=O)cc1 | - | - | MIC | ATCC 10231 | 6.3 µg/mL |
| CCOC(=O)Cc1nnc2nnc3c(n12)Nc1ccccc1C3 | - | - | MIC | ATCC 2091 | 200 µg/mL |
| Cc1n[nH]c(=O)c2c(C)noc12 | broth dilution | - | MIC | ATCC 10231 | ≥200 µg/mL |
| COc1ccc(-c2cn3nc(Cl)sc3n2)cc1 | agar diffusion | - | MIC | - | 75 µg/mL |
| N/C(=N/N=C1CCCCCCC1)SCc1cccc(Cl)c1 | - | - | MIC | - | >200 µg/mL |
| Clc1ccccc1C(c1ccccc1)(c1ccccc1)n1ccnc1 | - | - | MIC | ATCC 2091 | 12.5 µg/mL |
| Cc1nn(C(=O)Nc2ccc(Cl)cc2)c(=O)c2c(C)noc12 | broth dilution | - | MIC | ATCC 10231 | ≥200 µg/mL |
| N/C(=N/N=C1CCCC1)SCc1ccccc1 | - | - | MFC | - | >200 µg/mL |
| CC[C@H](C)/C=C(C)/C=C/C1=CC2=CC3=C(C(C)=O)C(=O)O[C@@]3(C)C(=O)C2=CO1 | - | - | EC50 | - | 0.6 µg/mL |
| c1ccc(C(c2ccc3ccccc3c2)n2ccnc2)cc1 | - | - | MIC50 | 23 strains | 8 µg/mL |
| CCCCCCCCCCCC[N+](C)(C)COC1CCCC1 | - | - | MIC | ATCC 10231 | 144 µM |
| COc1ccc(C(=O)/C=C/c2cc3c([nH]2)CC(C)(C)CC3=O)cc1 | - | - | MIC | ATCC 2091 | 200 µg/mL |
| CCCCCCCCCCCC[N+](C)(C)COCC(C)C | - | - | MBC | ATCC 10231 | 298 µM |
| CCn1c2c(c3ccccc31)C(=O)c1ncc(C)cc1C2=O | - | - | MIC | - | >200 µg/mL |
| N/C(=N/N=C1CCCCCC1)SCc1cccc(Cl)c1 | - | - | MIC | - | >200 µg/mL |
| Cc1ccc(CN(Cc2ccc(-c3ccccc3)cc2)n2ccnc2)cc1 | - | - | MFC | - | 200 µM |
| C[C@H]1[C@H](O)[C@@H](C)/C=C/C=C/C=C/C=C/C=C/C=C/C=C/[C@H](O[C@@H]2O[C@H](C)[C@@H](O)[C@H](N)[C@@H]2O)C[C@@H]2O[C@](O)(C[C@@H](O)C[C@@H](O)CC[C@H](O)[C@@H](O)C[C@@H](O)CC(=O)O[C@H]1C)C[C@H](O)[C@H]2C(=O)O | - | - | MIC50 | - | 1 µg/mL |
| CCCCCOc1ccc(-c2ccc(-c3ccc(C(=O)N[C@H]4C[C@@H](O)[C@@H](O)NC(=O)[C@@H]5[C@@H](O)[C@@H](C)CN5C(=O)[C@H]([C@H](C)O)NC(=O)[C@H]([C@H](O)[C@@H](O)c5ccc(O)cc5)NC(=O)[C@@H]5C[C@@H](O)CN5C(=O)[C@H]([C@H](C)O)NC4=O)cc3)cc2)cc1 | - | - | MIC50 | 42 isolates | 0.002 µg/mL |
| C[C@@H](B1OC2CC3CC(C3(C)C)[C@@]2(C)O1)[C@@H](Cc1ccccc1)NC(=O)C(N)Cc1ccccc1 | agar | - | MIC | - | ≤500 µg/mL |
| C=CCc1ccc(OC)c(OC)c1 | turbidity | - | MIC90 | 3143 | 340 µg/mL |
| C[N+](C)(COCCC1CCCCC1)Cc1cc(N=Nc2ccc(Cl)cc2)ccc1O | - | - | MBC | - | 66 µM |
| N/C(=N/N=C1CCCCCC1)SCc1ccccc1 | - | - | MIC | - | >200 µg/mL |
| CCC(C)n1ncn(-c2ccc(N3CCN(c4ccc(OC[C@H]5CO[C@](Cn6cncn6)(c6ccc(Cl)cc6Cl)O5)cc4)CC3)cc2)c1=O | - | - | MIC50 | 131 isolates | 0.03 µg/mL |
| c1ccc(-c2csc(NN=C3CCCCCCCC3)n2)cc1 | - | - | MFC | - | >100 µg/mL |
| COc1ccccc1CN(Cc1ccc(-c2ccccc2)cc1)n1ccnc1 | - | - | MIC | - | 33 µM |
| O=[N+]([O-])c1ccc(-c2cn3nc(Cl)sc3n2)cc1 | agar diffusion | - | MIC | - | >75 µg/mL |
| CCCCCCCC(=O)CCCCCC/C=C/C(C(=O)NC(Cc1ccc(OCC=C(C)C)cc1)C(=O)O)C(O)(CC(=O)O)C(=O)O | - | - | MIC | TIMM0136 | 12.5 µg/mL |
| CCCCCCOC[N+](C)(C)Cc1cc(N=Nc2ccc(Cl)cc2)ccc1O | - | - | MBC | - | 141 µM |
| C[C@@H](c1ncncc1F)[C@](O)(Cn1cncn1)c1ccc(F)cc1F | - | - | MIC | OY-12-99 (fluconazole-resistant) | 4 µg/mL |
| CCCCCCCOC[N+](C)(C)Cc1cc(N=Nc2ccc(Cl)cc2)ccc1O | - | - | MBC | - | 1101 µM |
| CCOC(=O)c1csc(NC(=O)CSc2nnc(C(C)Oc3ccc(C)cc3)n2C2CCCCC2)n1 | - | - | MIC | NRRL Y-27077 | >16 µg/mL |
| O=[N+]([O-])c1nn2cc(-c3ccc(Cl)cc3)nc2s1 | agar diffusion | - | MIC | - | >75 µg/mL |
| CCCCCCCCCOC[N+](C)(C)Cc1cc(N=Nc2ccc(Cl)cc2)ccc1O | - | - | MIC | - | 259 µM |
| Cc1nn(C(=O)C(F)(F)F)c(=O)c2c(C)noc12 | broth dilution | - | MIC | ATCC 10231 | ≥200 µg/mL |
| c1ccc(C(c2cccc3ccccc23)n2ccnc2)cc1 | - | - | Mean MIC | 23 strains | 8.88 µg/mL |
| CCCCCCCCCCCC[N+](C)(C)COC1CCCCCC1 | - | - | MIC | ATCC 10231 | 26.6 µM |
| O[C@](Cn1cncn1)(Cn1cnc(/C=C/c2ccc(OCC(F)(F)C(F)F)cc2)n1)c1ccc(F)cc1F | - | - | MIC50 | 50 strains (fluconazole-resistant) | 0.25 µg/mL |
| CCCCCCCCCCCC[N+](C)(C)COCCCCCCCCC | - | - | MIC | ATCC 10231 | 62 µM |
| CCOC(=O)c1csc(NC(=O)CSc2nnc(C(C)Oc3ccccc3)n2C2CCCCC2)n1 | - | - | MIC | Clinical isolates | 16 µg/mL |
| C[C@H]1[C@H](O)C(=O)CC2[C@]3(C)CC[C@@]4(C)C5C[C@](C)(C(=O)O)CC[C@]5(C)CC[C@]4(C)C3CC[C@@]21C | - | - | MIC | - | >50 µg/mL |
| CC(Oc1ccc(Cl)cc1)c1nnc(SCC(=O)Nc2nccs2)n1-c1ccccc1 | - | - | MIC | Clinical isolates | >16 µg/mL |
| CCCCCCCCCCCC[N+](C)(C)COCCCCCCCCCCC | - | - | MIC | ATCC 10231 | 115 µM |
| N/C(=N/N=C1CCCCCC1)SCc1ccccc1Cl | - | - | MIC | - | >200 µg/mL |
| C=C[C@@H]1C(=C)CC[C@H]2[C@H]1C[C@H]1OC(=O)[C@@]3(C)[C@@H](O)CC[C@@]2(C)[C@@]13O | - | - | MIC | - | 8 µg/mL |
| CC1(C)C2CC3OB(C[C@@H](Cc4ccccc4)NC(=O)[C@H](Cc4ccccc4)NC(=O)[C@@H](N)Cc4ccccc4)O[C@]3(C)C1C2 | - | - | MIC | - | ≤500 µg/mL |

A second listing of 5 rows from above:

Cc1c(Cl)cccc1NC(=O)CCN1C(=O)S/C(=C\c2ccc(O)cc2O)C1=O ; endpoint: MIC ; result: 50 µg/mL
CCOc1ccc(NC2=C(SC)C(=O)c3ncccc3C2=O)cc1 ; endpoint: MIC ; strain: ATCC 10231 ; result: 6.3 µg/mL
C=CCSS(=O)CC=C ; read by: broth dilution ; endpoint: MIC50 ; strain: Clinical Isolate 3109 ; result: 1.56 µg/mL
Cc1ccc(OC(C)c2nnc(SCC(=O)Nc3nccs3)n2-c2ccccc2)cc1 ; endpoint: MIC ; strain: Clinical isolates ; result: >16 µg/mL
Cc1n[nH]c(=O)c2c(C)noc12 ; read by: broth dilution ; endpoint: MIC ; strain: ATCC 10231 ; result: ≥200 µg/mL

ECn is the concentration giving n% inhibition of infection, replication or growth. A number after MIC or MFC names an inhibition level or a share of isolates. An empty or dashed field is not shown. a–b is a range or a potency band.